{"source": "patent US20090196872A1", "target": "M2 protein expressed on A/PR/8/34 infected MDCK cells (influenza A virus A/PR/8/34) (UniProt P06821)", "assay": "cell-based or functional assay"}
{"substance": "isotype matched human monoclonal anti-HSA IgG1 antibody", "values": [{"measurement": "ADCC: lysis of A/PR/8/34 infected MDCK cells, antibody 5 ug/mL, […] cells", "value": 25, "unit": "%"}]}
